# Potato spindle tuber viroid, loop 6: variant abundance in plants

Region: loop 6 of PSTVd (intermediate strain), upper and lower strand joined, each 5' to 3', the first 5 letters being the upper strand, closing pairs included. Wild type: UGACCGCGAG. Varied positions (N): UNNNCGNNNG.

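Three N. benthamiana plants were inoculated with the whole mutant pool. Samples came from the inoculated region at 5 days, the leaf margin at 10 and upper systemic leaves at 12.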

Numbers give reads per thousand; 0 = not seen among the reads, higher = more abundant.
Each site shows the three plants.
"Pool" is the share in the plasmid pool used as inoculum, on the same scale.
The inoculated region was read from the minus strand, the other sites from the plus strand.
Wild type was 20.7 per thousand in the pool and the most common sequence in every sample (inoculated region 195, 198, 203; leaf margin 629, 591, 734; systemic leaves 942, 870, 868).
Sequences that differ at fixed positions probably stem from PCR or sequencing errors, and defective variants can be carried along by functional ones.
With 36,220-57,551 reads a sample, very low values are single reads.

| sequence | pool | inoculated region | leaf margin | systemic leaves |
|---|---|---|---|---|
| UCGUCGCGUG | 0.170 | 0.122 0.108 0.111 | 0 0 0 | 0 0 0 |
| UCGUCGCUAG | 0.170 | 0.0869 0.108 0.0922 | 0 0 0 | 0 0 0 |
| UCGUCGCUCG | 0.222 | 0.0869 0.0719 0.0922 | 0 0 0.0232 | 0 0 0 |
| UCGUCGCUGG | 0.170 | 0.0869 0.162 0.0922 | 0 0 0.0232 | 0 0 0 |
| UCGUCGCUUG | 0.144 | 0.0869 0.0898 0.111 | 0.0276 0 0.0464 | 0 0 0 |
| UCGUCGGAAG | 0.183 | 0.139 0.0898 0.129 | 0 0 0 | 0 0 0 |
| UCGUCGGACC | 0.0131 | 0 0 0 | 0 0 0 | 0 0 0 |
| UCGUCGGACG | 0.170 | 0.0521 0.0719 0.0553 | 0 0 0 | 0 0 0 |
| UCGUCGGAGG | 0.157 | 0.122 0.0719 0.0553 | 0 0 0.0232 | 0 0 0 |
| UCGUCGGAUG | 0.275 | 0.104 0.0719 0.0369 | 0.0276 0 0.0232 | 0 0 0 |
| UCGUCGGCAG | 0.105 | 0.104 0.0719 0.0553 | 0 0 0 | 0 0 0.0205 |
| UCGUCGGCCG | 0.144 | 0.122 0.0719 0.0184 | 0 0 0 | 0 0 0 |
| UCGUCGGCGG | 0.235 | 0.0869 0.0898 0.0184 | 0 0 0.0232 | 0 0 0 |
| UCGUCGGCUG | 0.261 | 0.104 0.162 0.0553 | 0.0276 0 0 | 0 0 0 |
| UCGUCGGGAG | 0.275 | 0.139 0.0539 0.0922 | 0 0 0.0232 | 0 0 0 |
| UCGUCGGGCG | 0.131 | 0.122 0.0719 0 | 0.0276 0 0 | 0 0 0 |
| UCGUCGGGGG | 0.144 | 0.139 0.144 0.111 | 0 0 0 | 0 0 0 |
| UCGUCGGGUG | 0.170 | 0.0869 0.0719 0.0369 | 0 0 0.0232 | 0 0 0 |
| UCGUCGGUAG | 0.392 | 0.122 0.0719 0.148 | 0 0 0 | 0 0 0 |
| UCGUCGGUCG | 0.353 | 0.139 0.0898 0.0184 | 0 0 0 | 0 0 0 |
| UCGUCGGUGG | 0.275 | 0.122 0.0359 0.0553 | 0 0 0 | 0 0 0 |
| UCGUCGGUUG | 0.353 | 0.0869 0.0898 0.129 | 0 0 0.0232 | 0 0 0 |
| UCGUCGUAAG | 0.105 | 0.0869 0.0719 0.0738 | 0.0276 0 0.0232 | 0 0 0 |
| UCGUCGUACG | 0.275 | 0.174 0.162 0.148 | 0 0.252 0 | 0 0 0 |
| UCGUCGUAGG | 0.261 | 0.0695 0.126 0.0553 | 0.0276 0 0 | 0 0 0 |
| UCGUCGUAUG | 0.379 | 0.0695 0.0898 0.0738 | 0.276 0 0 | 0.0180 0 0 |
| UCGUCGUCAG | 0.261 | 0.0869 0.0898 0.0553 | 0 0 0.0232 | 0 0 0 |
| UCGUCGUCCG | 0.209 | 0.104 0.0539 0.184 | 0 0 0 | 0 0 0 |
| UCGUCGUCGG | 0.235 | 0.0869 0.0719 0.0184 | 0 0 0 | 0 0 0 |
| UCGUCGUCUG | 0.497 | 0.139 0.0359 0.0184 | 0 0 0.0232 | 0 0 0 |
| UCGUCGUGAG | 0.235 | 0.156 0.0898 0.111 | 0 0 0 | 0 0 0 |
| UCGUCGUGCG | 0.235 | 0.0695 0.0359 0.111 | 0 0 0.0232 | 0 0 0 |
| UCGUCGUGGG | 0.222 | 0.104 0.0898 0.0553 | 0 0 0 | 0 0 0 |
| UCGUCGUGUG | 0.144 | 0.122 0.0359 0.0738 | 0 0 0 | 0 0 0 |
| UCGUCGUUAG | 0.405 | 0.0521 0.144 0.0369 | 0.0276 0 0 | 0 0 0 |
| UCGUCGUUCG | 0.248 | 0.156 0.0898 0.0738 | 0.0552 0 0 | 0 0 0 |
| UCGUCGUUGG | 0.170 | 0.226 0.162 0.0738 | 0 0 0 | 0 0 0 |
| UCGUCGUUUG | 0.353 | 0.0695 0.0359 0.0922 | 0.0276 0 0.0232 | 0 0 0 |
| UCUACCUUGG | 0.0131 | 0 0 0 | 0 0 0 | 0 0 0 |
| UCUACGAAAG | 0.196 | 0.122 0.108 0.0738 | 0 0 0 | 0 0 0 |
| UCUACGAACG | 0.170 | 0.191 0.162 0.0738 | 0.0276 0 0.0232 | 0 0 0.0205 |
| UCUACGAAGG | 0.157 | 0.191 0.0719 0.129 | 0.0828 0 0 | 0 0 0 |
| UCUACGAAUG | 0.222 | 0.122 0.0898 0.111 | 0.0828 0 0.0232 | 0 0 0 |
| UCUACGACAG | 0.340 | 0.104 0.144 0.0184 | 0.0552 0 0.0232 | 0 0 0 |

A selection of 6 entries from above:

* UCGUCGGGAG (pool 0.275) -> inoculated region 0.139 0.0539 0.0922; leaf margin 0 0 0.0232; systemic leaves 0 0 0
* UCUACCUUGG (pool 0.0131) -> inoculated region 0 0 0; leaf margin 0 0 0; systemic leaves 0 0 0
* UCGUCGGAGG (pool 0.157) -> inoculated region 0.122 0.0719 0.0553; leaf margin 0 0 0.0232; systemic leaves 0 0 0
* UCGUCGCGUG (pool 0.170) -> inoculated region 0.122 0.108 0.111; leaf margin 0 0 0; systemic leaves 0 0 0
* UCGUCGGUUG (pool 0.353) -> inoculated region 0.0869 0.0898 0.129; leaf margin 0 0 0.0232; systemic leaves 0 0 0
* UCGUCGGCUG (pool 0.261) -> inoculated region 0.104 0.162 0.0553; leaf margin 0.0276 0 0; systemic leaves 0 0 0

Data from the supplement of Wu et al. 2024, doi:10.1371/journal.ppat.1012142.